Pooled drug test results. Numbers come from NIAID ChemDB, via PubChem.

Shared fields: host cell toxicity; cell line: C8166; measure: CC50

CCn is the concentration with n% toxicity to the cells.

SMILES | read by | result
CC1=C[C@H]2[C@@]3(O)[C@H](C)[C@@H](OC(=O)CCCCCCCCCBr)[C@]4(OC(=O)CCCCCCCCCBr)[C@H]([C@@H]3C=C(CO)C[C@]2(O)C1=O)C4(C)C | MTT | 26.2 µM
Cc1cn([C@H]2C[C@H](N=[N+]=[N-])[C@@H](CO)O2)c(=O)nc1Oc1c(F)c(F)c(F)c(F)c1F | - | 400 µM
Cc1cccnc1CN(CCCCN)Cc1nc2nccc(N3CCN(C)CC3)c2[nH]1 | MTT | >10 µM
O=C(c1cc2c([nH]c3ccccc32)c(-c2cccs2)n1)N1CCC(c2cccc(Cl)c2Cl)CC1 | MTT | >400 µM
CC(=O)OCC1=C[C@H]2[C@@H]3C(C)(C)[C@]3(OC(C)=O)[C@H](OC(=O)CCc3ccccc3)[C@@H](C)[C@]2(O)[C@@H]2C=C(C)C(=O)[C@@]2(O)C1 | MTT | 125 µM
O=c1nc(-n2cncn2)ccn1[C@@H]1O[C@H](CO)[C@@H](O)[C@H]1O | - | 400 µM
CCc1cc(-c2ccc(C)o2)n(-c2ccc3c(c2)nc(-c2ccc(C(N)=O)cc2)n3Cc2ccc(OC)c(O)c2)n1 | MTT | 12 µM
CC1CC(=O)Nc2ccccc2N1C(=O)c1ccc(Cl)cc1 | MTT / absorbance | >400 µM
CC(=O)NC1C(O)OC(COS(=O)(=O)O)C(OC2OC(C(=O)O)C(OC3OC(CO)C(OC4OC(C(=O)O)C(O)C(O)C4OS(=O)(=O)O)C(OS(=O)(=O)O)C3NS(=O)(=O)O)C(O)C2OS(=O)(=O)O)C1O | absorbance | >300 µg/mL
COc1ccc(C(=O)CSc2nc(Cc3ccccc3)c(C(C)C)c(=O)[nH]2)cc1 | MTT | >489 µM
CCOP(=O)(OCC)OC[C@H]1O[C@@H](n2cc(C)c(=O)[nH]c2=O)C[C@@H]1OS(C)(=O)=O | - | >100 µM
COc1cc([C@@H]2c3cc(O)c(OC)cc3C(=O)[C@@H](C)[C@H]2C)ccc1O | MTT | 87.1 µg/mL
CCOP(=O)(NCCC(=O)OC)OC[C@H]1O[C@@H](n2cc(C)c(=O)[nH]c2=O)C[C@@H]1N=[N+]=[N-] | - | >100 µM
CCc1c(Cc2cccc3ccccc23)nc(SCC(=O)c2ccc(OC)cc2)[nH]c1=O | MTT | >450 µM
Cc1ccc(S(=O)(=O)n2cc(C=O)c3ccccc32)cc1 | MTT | 98.15 µM
O=c1nc(-n2cncn2)ccn1[C@H]1C[C@H](O)[C@@H](CO)O1 | - | >1000 µM
CCOC(=O)COP(=O)([O-])OCC[NH2+]C | - | >100 µM
CCc1cc(-c2ccc(C)o2)n(-c2ccc3c(c2)nc(-c2ccc(C(N)=O)cc2)n3Cc2ccc(OC)nc2)n1 | MTT | 13 µM
CC1=C[C@H]2[C@@]3(O)[C@H](C)[C@@H](OC(=O)/C=C/c4ccccc4)[C@]4(O)[C@H]([C@@H]3C=C(COC(=O)/C=C/c3ccccc3)C[C@]2(O)C1=O)C4(C)C | MTT | >200 µM
CCc1c(Cc2cccc3ccccc23)nc(Sc2cccs2)[nH]c1=O | MTT | 280 µM
C/C(=C/[C@H]1C[C@](C)(O)C2[C@@H](C[C@@]3(C)[C@@H]4CC=C5[C@@H](C[C@H](O)[C@@H](O)C5(C)C)[C@]4(C)C(=O)C[C@]23C)O1)CO | MTT | 444.9 µM
O=C(O)c1cc2c([nH]c3ccccc32)c(-c2ccc(CO)o2)n1 | MTT | 28.71 µM
CC/C=C\C/C=C\C/C=C\C/C=C\C/C=C\CCCC(=O)O[C@@]12[C@H](O)[C@@H](C)[C@@]3(O)[C@@H](C=C(CO)C[C@]4(O)C(=O)C(C)=C[C@@H]34)[C@@H]1C2(C)C | MTT | 73 µM
CC(C)c1c(Cc2cccc3ccccc23)nc(SCCc2ccccc2)[nH]c1=O | MTT | >482 µM
O=Cc1c[nH]c2ccccc12 | MTT | 890 µM
CCc1cc(-c2ccc(C(F)(F)F)o2)n(-c2ccc3c(c2)nc(-c2cc(C(=O)N4CCCC4)ccc2O)n3Cc2ccc(=O)[nH]c2)n1 | MTT | 20 µM
CC1CC(=O)Nc2ccccc2N1C(=O)c1ccccc1 | MTT / absorbance | >400 µM
O=C(c1cc2c([nH]c3ccccc32)c(-c2cccs2)n1)N1CCC(c2ccccc2F)CC1 | MTT | >400 µM
COc1ccc(S(=O)(=O)n2cc(C=O)c3ccccc32)cc1 | MTT | 43.48 µM
Cc1cccc(C)c1-c1cccnc1CN(CCCCN)Cc1nc2nccc(N3CCN(C)CC3)c2[nH]1 | MTT | >10 µM
CCc1cc(-c2ccc(C)o2)n(-c2ccc3c(c2)nc(-c2ccc(C(N)=O)cc2)n3CC2CC2)n1 | MTT | 17 µM
COc1ccc(S(=O)(=O)n2cc(C=O)c3cc(C#N)ccc32)cc1 | MTT | 151 µM
COC(=O)[C@H](C)NP(=O)(OC[C@H]1O[C@@H](n2cc(C)c(=O)[nH]c2=O)C[C@@H]1N=[N+]=[N-])Oc1ccccc1 | - | >100 µM
COc1ccc(S(=O)(=O)n2cc(C=O)c3ccc(C)cc32)cc1 | MTT | 197 µM
O=[N+]([O-])c1ccc(S(=O)(=O)Oc2ccc(N=Nc3ccc(N=Nc4ccc(OS(=O)(=O)c5ccc([N+](=O)[O-])cc5)c5ncccc45)cc3)c3cccnc23)cc1 | MTT | 40.36 µg/mL
Cc1cccc(Sc2c(C(=O)NCCO)[nH]c3ccc(Cl)cc23)c1 | MTT | >100 µM
Cc1c(Cc2cccc3ccccc23)nc(SCC(=O)c2ccco2)[nH]c1=O | MTT | >512 µM
COc1cc2c(c(OC)c1OC)-c1c(cc3c(c1OC)OCO3)[C@H](OC(=O)c1ccccc1)[C@@](C)(O)[C@@H](C)C2 | MTT | 72.44 µg/mL
Cc1ccccc1Sc1c(C(=O)NCCO)[nH]c2ccc(Cl)cc12 | MTT | >100 µM
CC(=O)Nc1ccc(S(=O)(=O)Oc2ccc(N=Nc3ccc(N=Nc4ccc(OS(=O)(=O)c5ccc(NC(C)=O)cc5)c5ncccc45)cc3)c3cccnc23)cc1 | MTT | 37.69 µg/mL
Cc1cn([C@H]2C[C@H](N=[N+]=[N-])[C@@H](CO)O2)c(=O)[nH]c1=O | MTT | >400 µM
CC(=O)OC(C)(C)CCC(=O)[C@](C)(O)[C@H]1[C@H](O)C[C@@]2(C)[C@@H]3CC=C4[C@@H](C[C@H](O)[C@@H](O)C4(C)C)[C@]3(C)C(=O)C[C@]12C | MTT | 321.8 µM
CCCCCCOP(=O)([O-])OCC[NH2+]C | - | >100 µM
CC(=O)OCC1=C[C@H]2[C@@H]3C(C)(C)[C@]3(OC(C)=O)[C@H](OC(=O)/C=C/c3ccc4c(c3)OCO4)[C@@H](C)[C@]2(O)[C@@H]2C=C(C)C(=O)[C@@]2(O)C1 | MTT | >200 µM
O=C(NNCCO)c1[nH]c2ccc(Cl)cc2c1Sc1ccccc1 | MTT | >100 µM
CCCCOP(=O)(OCCCC)OC[C@H]1O[C@@H](n2cc(C)c(=O)[nH]c2=O)C[C@@H]1O | - | >100 µM
CC1CC(=O)Nc2ccccc2N1C(=O)c1ccc(Br)cc1 | MTT / absorbance | >400 µM
O=C(CCCCc1ccccc1)c1ccc(O)cc1 | MTT | 15.52 µg/mL
CCc1c(Cc2ccccc2)nc(SCC(=O)c2cccs2)[nH]c1=O | MTT | 95.7 µM
CCCCCCOC(=O)[C@H](C)NP(=O)(OC[C@H]1O[C@@H](n2cc(C)c(=O)[nH]c2=O)C[C@@H]1N=[N+]=[N-])Oc1ccccc1 | - | >100 µM
Cc1ccc(Sc2c(C(=O)NNCCO)[nH]c3ccc(Cl)cc23)c(C)c1 | MTT | >100 µM
N#Cc1ccc2[nH]cc(C=O)c2c1 | MTT | 466 µM
Cc1cc(C)cc(S(=O)(=O)c2c(C(N)=O)[nH]c3c(Cl)cc(Cl)cc23)c1 | MTT | >200 µM
CN1CCN(c2ccnc3nc(CN(CCCCN)Cc4ncc(Cl)cc4Cl)[nH]c23)CC1 | MTT | >10 µM
CCOP(=O)(OCC)OC[C@H]1O[C@@H](n2cc(C)c(=O)[nH]c2=O)C[C@@H]1OC(C)=O | - | >100 µM
CN(Cc1ccccn1)Cc1nc2ccccc2[nH]1 | MTT | >10 µM
Cc1cccc(C(=O)N2c3ccccc3NC(=O)CC2C)c1 | MTT / absorbance | >400 µM
CCc1c(Cc2ccccc2)nc(SCC(=O)c2ccccc2)[nH]c1=O | MTT | >549 µM
O=c1nc(Oc2c(F)c(F)c(F)c(F)c2F)ccn1[C@@H]1O[C@H](CO)[C@@H](O)[C@H]1O | - | 200 µM
CCc1ccc(S(=O)(=O)Oc2ccc(N=Nc3ccc(N=Nc4ccc(OS(=O)(=O)c5ccc(CC)cc5)c5ncccc45)cc3)c3cccnc23)cc1 | MTT | 82.29 µg/mL
CCc1cc(-c2ccc(C)o2)n(-c2ccc3c(c2)nc(-c2ccccc2O)n3Cc2ccc(=O)[nH]c2)n1 | MTT | >26 µM
CCOP(=O)(NCC(=O)OC)OC[C@H]1O[C@@H](n2cc(C)c(=O)[nH]c2=O)C[C@@H]1N=[N+]=[N-] | - | >100 µM
CC1CC(=O)Nc2ccccc2N1C(=O)c1ccccc1Br | MTT / absorbance | >400 µM
CCOP(=O)(NCCCCC(=O)OC)OC[C@H]1O[C@@H](n2cc(C)c(=O)[nH]c2=O)C[C@@H]1N=[N+]=[N-] | - | >100 µM
CCc1cc(-c2ccc(C)o2)n(-c2ccc3c(c2)nc(-c2ccc(C(N)=O)cc2)n3Cc2ccc(=O)[nH]c2)n1 | MTT | >39 µM
O=[N+]([O-])c1cc(S(=O)(=O)Oc2ccc(N=Nc3ccc(N=Nc4ccc(OS(=O)(=O)c5ccc(Cl)c([N+](=O)[O-])c5)c5ncccc45)cc3)c3cccnc23)ccc1Cl | MTT | 13.14 µg/mL
CC1CC(=O)Nc2ccccc2N1C(=O)c1cccc(Cl)c1 | MTT / absorbance | >400 µM
CCCCCCCCCCCCCCCCCCOC(=O)/C=C/c1ccc(O)c(O)c1 | MTT | 86.14 µg/mL
Cc1cccc(S(=O)(=O)c2c(C(=O)NCCO)[nH]c3ccc(Cl)cc23)c1 | MTT | >100 µM
Cc1ccccc1C(=O)N1c2ccccc2NC(=O)CC1C | MTT / absorbance | >400 µM
CN(Cc1ncccc1Br)Cc1nc2ccccc2n1C(=O)OC(C)(C)C | MTT | >10 µM
CC(CCC=C(CO)CO)C1CC[C@@]2(C)[C@@H]3CC=C4[C@@H](CCC(O)C4(C)C)[C@]3(C)C(O)C[C@]12C | MTT | 403.8 µM
Cc1c(Cc2cccc3ccccc23)nc(SCCc2ccccc2)[nH]c1=O | MTT | >517 µM
CN(Cc1ncccc1CCC#N)Cc1nc2ccccc2n1Cc1ccccc1 | MTT | >10 µM
CCCCOP(=O)(OCCCC)OC[C@H]1O[C@@H](n2cc(C)c(=O)[nH]c2=O)C[C@@H]1OS(C)(=O)=O | - | >100 µM
Cc1ccc(S(=O)(=O)c2c(C(=O)NCCO)[nH]c3ccc(Cl)cc23)c(C)c1 | MTT | >100 µM
CCCCOP(=O)(OCCCC)OC[C@H]1O[C@@H](n2cc(C)c(=O)[nH]c2=O)C[C@@H]1OCC | - | >100 µM
Cc1cn([C@H]2C[C@H](N=[N+]=[N-])[C@@H](COP(=O)(N[C@@H](C)C(=O)OC3CCCCC3)OCC(Cl)(Cl)Cl)O2)c(=O)[nH]c1=O | - | >100 µM

Again, the opening 10 rows:

{"SMILES": "CC1=C[C@H]2[C@@]3(O)[C@H](C)[C@@H](OC(=O)CCCCCCCCCBr)[C@]4(OC(=O)CCCCCCCCCBr)[C@H]([C@@H]3C=C(CO)C[C@]2(O)C1=O)C4(C)C", "read by": "MTT", "result": "26.2 µM"}
{"SMILES": "Cc1cn([C@H]2C[C@H](N=[N+]=[N-])[C@@H](CO)O2)c(=O)nc1Oc1c(F)c(F)c(F)c(F)c1F", "result": "400 µM"}
{"SMILES": "Cc1cccnc1CN(CCCCN)Cc1nc2nccc(N3CCN(C)CC3)c2[nH]1", "read by": "MTT", "result": ">10 µM"}
{"SMILES": "O=C(c1cc2c([nH]c3ccccc32)c(-c2cccs2)n1)N1CCC(c2cccc(Cl)c2Cl)CC1", "read by": "MTT", "result": ">400 µM"}
{"SMILES": "CC(=O)OCC1=C[C@H]2[C@@H]3C(C)(C)[C@]3(OC(C)=O)[C@H](OC(=O)CCc3ccccc3)[C@@H](C)[C@]2(O)[C@@H]2C=C(C)C(=O)[C@@]2(O)C1", "read by": "MTT", "result": "125 µM"}
{"SMILES": "O=c1nc(-n2cncn2)ccn1[C@@H]1O[C@H](CO)[C@@H](O)[C@H]1O", "result": "400 µM"}
{"SMILES": "CCc1cc(-c2ccc(C)o2)n(-c2ccc3c(c2)nc(-c2ccc(C(N)=O)cc2)n3Cc2ccc(OC)c(O)c2)n1", "read by": "MTT", "result": "12 µM"}
{"SMILES": "CC1CC(=O)Nc2ccccc2N1C(=O)c1ccc(Cl)cc1", "read by": "MTT / absorbance", "result": ">400 µM"}
{"SMILES": "CC(=O)NC1C(O)OC(COS(=O)(=O)O)C(OC2OC(C(=O)O)C(OC3OC(CO)C(OC4OC(C(=O)O)C(O)C(O)C4OS(=O)(=O)O)C(OS(=O)(=O)O)C3NS(=O)(=O)O)C(O)C2OS(=O)(=O)O)C1O", "read by": "absorbance", "result": ">300 µg/mL"}
{"SMILES": "COc1ccc(C(=O)CSc2nc(Cc3ccccc3)c(C(C)C)c(=O)[nH]2)cc1", "read by": "MTT", "result": ">489 µM"}

An empty or dashed field is not shown. Rows are shuffled and stem from different studies.